Source: PubChem BioAssay AID624099 (ICCB-Longwood, 2012)
Here is an unselected part of about 21,000 reagents. Over the whole deposit, 497 (2.4%) got an active call. 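Higher z means weaker E2 silencing; only reporter increases were scored, and knock-downs that hurt cell survival may mask genuine repressor factors.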 Entries without a mark were called inactive. Reagent sequences are not shown.

- Purpose: 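Human genes that papillomavirus E2 requires to repress the HPV18 LCR promoter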 (primary screen)
- Cells: human C33A cervical carcinoma cells (HPV-negative) stably expressing BPV1 E2 and an HPV18 LCR luciferase reporter
- Reagent: siRNA pool against human genes, 40 nM
- Time to read-out: 72 h
- Measurement: 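HPV18 LCR reporter light per well, converted to plate-wise z-scores that exclude control wells, and averaged over triplicate plates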
- Scale: mean z-score and z-score: higher = stronger reporter signal, weaker E2 silencing
- Rule for the call: 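Mean z ≥ 2 together with z ≥ 2 in two or more of the three replicates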

What did the screen give for CDT1?
mean z-score: -1.51; z-score, replicate A: -1.33; z-score, replicate B: -1.66; z-score, replicate C: -1.53

With KLHL7, how do the results read?
mean z-score: -0.89; z-score, replicate A: -0.62; z-score, replicate B: -1.06; z-score, replicate C: -0.98

With C2orf78, what was measured?
mean z-score: 0.01; z-score, replicate A: -0.13; z-score, replicate B: 0.5; z-score, replicate C: -0.34

For HPRT1, what does the deposit list?
mean z-score: -1.48; z-score, replicate A: -1.48; z-score, replicate B: -1.31; z-score, replicate C: -1.65

With RBKS, what does the deposit list?
mean z-score: 0.53; z-score, replicate A: 0.08; z-score, replicate B: 0.61; z-score, replicate C: 0.91

Which result is listed for KLRK1?
mean z-score: 0.07; z-score, replicate A: 0.05; z-score, replicate B: 0.14; z-score, replicate C: 0.01

With UGT1A7, what was measured?
mean z-score: 0.2; z-score, replicate A: 0.17; z-score, replicate B: 0.04; z-score, replicate C: 0.39

With TNR, what does the deposit list?
mean z-score: 0.27; z-score, replicate A: 0.29; z-score, replicate B: 0.36; z-score, replicate C: 0.16

A portion taken from the entries so far, as a working copy:
CDT1 | mean z-score: -1.51; z-score, replicate A: -1.33; z-score, replicate B: -1.66; z-score, replicate C: -1.53
KLHL7 | mean z-score: -0.89; z-score, replicate A: -0.62; z-score, replicate B: -1.06; z-score, replicate C: -0.98
C2orf78 | mean z-score: 0.01; z-score, replicate A: -0.13; z-score, replicate B: 0.5; z-score, replicate C: -0.34

The list goes on:
With MGAT4A, how do the results read?
mean z-score: -0.28; z-score, replicate A: -0.26; z-score, replicate B: -0.37; z-score, replicate C: -0.21

What did the screen give for LOC389347 (retired record)?
mean z-score: 0.03; z-score, replicate A: -0.22; z-score, replicate B: 0.18; z-score, replicate C: 0.14

What is on record for TSKS?
mean z-score: 0.52; z-score, replicate A: 0.35; z-score, replicate B: 0.57; z-score, replicate C: 0.64

Which result is listed for LOC729078 (retired record)?
mean z-score: -0.5; z-score, replicate A: -0.52; z-score, replicate B: -0.61; z-score, replicate C: -0.36

Which result is listed for MIA3?
mean z-score: 0.64; z-score, replicate A: 1.08; z-score, replicate B: 0.46; z-score, replicate C: 0.39

What did the screen give for PTPRC?
mean z-score: 0.46; z-score, replicate A: 0.38; z-score, replicate B: 0.23; z-score, replicate C: 0.78

With TMTC4, how do the results read?
mean z-score: -0.63; z-score, replicate A: -0.57; z-score, replicate B: -0.56; z-score, replicate C: -0.76

For MYH16, what does the deposit list?
mean z-score: -0.11; z-score, replicate A: -0.44; z-score, replicate B: 0.03; z-score, replicate C: 0.1

With TNIP1, what was measured?
mean z-score: 1.53; z-score, replicate A: 1.71; z-score, replicate B: 1.53; z-score, replicate C: 1.35

With DRC3, what does the deposit list?
mean z-score: 0.23; z-score, replicate A: 0.32; z-score, replicate B: -0.08; z-score, replicate C: 0.45

How did the screen score DARS1?
mean z-score: -0.99; z-score, replicate A: -0.46; z-score, replicate B: -1.29; z-score, replicate C: -1.21

How did the screen score PHYH?
mean z-score: -1.35; z-score, replicate A: -1.39; z-score, replicate B: -1.2; z-score, replicate C: -1.46

For TCF19, what does the deposit list?
mean z-score: -0.87; z-score, replicate A: -1.03; z-score, replicate B: -0.6; z-score, replicate C: -0.99
